{"source": "paper PMC12114169", "about": "“Synthesis, Characterisation, Biological Evaluation and In Silico Studies of Quinoline–1,2,3-Triazole–Anilines as Potential Antitubercular and Anti-HIV Agents” (Molecules, 2025)", "test_system": "HIV-1 subtype B (NL4.3 virus)", "assay": "Luciferase-based antiviral assay in TZM-bl cells", "settings": "HIV-1 subtype B IC50 versus AZT", "note": "Several values for one entry are separate records, joined by “and”; a condition that tells them apart may be missing. Equal entries are not always repeated."}
{"smiles": "FC(F)(F)c1ccccc1NCc1cn(-c2ccnc3cc(Cl)ccc23)nn1", "note": "[Compound 11g, [1-(7-Chloro-4-quinolinyl)-1H-1,2,3-triazole-4-methyl]-2-triflouromethylaniline]", "values": [{"measurement": "fold less active than AZT", "result": 4, "unit": "fold"}]}
{"smiles": "O=[N+]([O-])c1cccc(NCc2cn(-c3ccnc4cc(Cl)ccc34)nn2)c1", "note": "[Compound 11i, [1-(7-Chloro-4-quinolinyl)-1H-1,2,3-triazole-4-methyl]-3-nitroaniline]", "values": [{"measurement": "fold less active than AZT", "result": 1.8, "unit": "fold"}]}
{"smiles": "Fc1cccc(NCc2cn(-c3ccnc4cc(Cl)ccc34)nn2)c1", "note": "[Compound 11h, [1-(7-Chloro-4-quinolinyl)-1H-1,2,3-triazole-4-methyl]-3-flouroaniline]", "values": [{"measurement": "fold more active than AZT", "result": "8.8 fold and 9 fold"}]}
